Pooled drug test results. Numbers come from NIAID ChemDB, via PubChem.

All rows: cytotoxicity tests; cell line: VERO; measure: CC50

CCn is the concentration with n% toxicity to the cells. Blank or dashed fields: not listed here. Conditions beyond the fields shown may differ between rows.

compound | read by | value
Nc1nc2c(ncn2CCOCP(=O)(O)O)c(=O)[nH]1 | - | 7 µg/mL
Nc1nc2c(ncn2C[C@H]2CC[C@@H](CO)C2)c(=O)[nH]1 | - | ≥400 µg/mL
COC(=O)[C@@H]1[C@H](c2cc(OC)c3nc4ccccc4nc3c2)c2cc3c(cc2C2=NOC[C@@H]21)OCO3 | - | 120 µg/mL
C[C@]12CCC3C(CC[C@H]4C[C@@H](O)CC[C@]34C)C1C[C@@H](Br)C21OCCO1 | MTT | 2322 µM
OC(c1cc(-c2ccccc2)nc2c1ccc1ccccc12)C1CCCCN1 | - | 1.8 µg/mL
COC(=O)[C@@H]1[C@H](c2cc(OC)c3nc4cc(Cl)c(Cl)cc4nc3c2)c2cc3c(cc2C2=NOC[C@@H]21)OCO3 | - | 30 µg/mL
COc1cc(-c2cc(=O)c3c(O)cc(O)cc3o2)cc(OC)c1O | - | 20.2 µg/mL
Cc1ccc(S(=O)(=O)/C=C/c2ccc([N+](=O)[O-])o2)cc1 | - | 1.56 µg/mL
N#Cc1c(SCCO)nsc1-c1ccccc1 | - | 5 µg/mL
Cc1c(CN2CCSCC2)cc(-c2ccc(F)cc2)n1-c1ccccc1 | - | 4 µg/mL
C/C(=N\NC(=O)c1ccncc1)c1cccc(F)c1 | - | >62.5 µg/mL
C[C@]12CCC3C(CC[C@H]4C[C@@H](O)CC[C@]34C)C1[C@H](O)CC2=O | MTT | 435.6 µM
Cc1oc2c(C)c3oc(=O)cc(C)c3cc2c1CCl | - | 3.64 µg/mL
Cn1c2ccccc2c2cc(C=NNc3nc(-c4ccc(F)cc4)cs3)ccc21 | MTT | 268.5 µM
N#Cc1c(SCCCCBr)nsc1-c1ccccc1 | - | 25 µg/mL
COC(=O)[C@H]1[C@H](O)[C@@H](C)[C@@H](O)[C@](C)(O)/C=C(\C)C2=C3C(=C(C)C(=O)c4c(O)c(c(C)c(OC(C)=O)c43)NC(=O)/C(C)=C/C=C\[C@@H](C)C(O)[C@@H](C)[C@H]1O)OCO2 | - | 65.6 µg/mL
CCCSc1nsc(-c2ccccc2)c1C(=O)OC | - | 50 µg/mL
CCOC(=O)Nc1nc(N)c2c(n1)NCCC(c1ccccc1)=N2 | - | >200 µg/mL
Nc1ncnc2c1ncn2C[C@H](O)CO | - | >400 µg/mL
C[C@]12CCC3C(CC[C@H]4C[C@@H](O)CC[C@]34C)C1C=CC21OCCO1 | MTT | 487.5 µM
CC(C)(C)c1ccc(CNc2ccc(N3CCSCC3)cc2)cc1 | - | 2 µg/mL
Cn1c2ccccc2c2cc(C=NNc3nc(-c4cccc(Cl)c4)cs3)ccc21 | MTT | 259.9 µM
COc1cc([C@@H]2c3cc4c(cc3[C@H](OC(C)=O)[C@@H]3COC(=O)[C@H]23)OCO4)cc2c1OCCO2 | - | >25 µg/mL
N#CCSc1nsc(-c2ccccc2)c1C#N | - | 10 µg/mL
CC[C@@H](C(C)C)[C@H](O)[C@@H](O)[C@@H](C)[C@H]1CC[C@H]2[C@@H]3CC(=O)[C@@]4(O)C[C@H](O)[C@H](O)C[C@]4(C)[C@H]3CC[C@]12C | MTT | 364 µM
CC(=O)c1cn(C/C=C/C(O)CO)c(=O)[nH]c1=O | - | >100 µM
CC[C@@H](C(C)C)[C@@H](O)[C@H](O)[C@@H](C)[C@H]1CC[C@H]2[C@@H]3CC(=O)C4C[C@@H](F)CC[C@]4(C)[C@H]3CC[C@]12C | MTT | 215 µM
Cc1cc2c(cc1C)[n+](=O)c(C#N)c(-c1ccc(F)cc1)n2[O-] | - | >100 µg/mL
CCC(NC(=O)C1CCC1C(=O)[C@@H](NC(=O)[C@@H](NC(=O)c1cnccn1)C1CCCCC1)C(C)(C)C)C(=O)C(=O)NC1CC1 | - | >100 µM
COc1ccc(-c2c(C#N)c(NC(=O)Nc3ccccc3)nc3[nH]c(=O)[nH]c(=O)c23)c(OC)c1 | - | 47 µg/mL
COc1ccc(C[C@H]2NC[C@H](O)[C@H]2OC(C)=O)cc1 | MTT | 45 µM
Cn1c2ccccc2c2cc(C=NNc3nc(-c4ccc(Cl)cc4)cs3)ccc21 | MTT | 389.6 µM
O=C(CCc1ccccc1)c1ccc(Oc2ccccc2)c(O)c1 | MTT | >300 µg/mL
CN(C)CCNc1ccc2nnn3c4ccc(O)cc4c(=O)c1c23 | - | 1.91 µg/mL
COc1ccc(-c2nc3ccccc3n2-c2ccc(Br)cc2)cc1 | MTT / absorbance | 1000 µM
COc1ccc(-c2cc(=O)c3c(O)cc(O)cc3o2)cc1O | - | 65 µg/mL
O=C1NC(=O)c2c1c1c3ccccc3[nH]c1c1[nH]c3ccccc3c21 | - | >125 µM
COc1ccc2c3c([nH]c2c1)C(C)=NCC3 | MTT | 30 µg/mL
O=[n+]1c2ccccc2n([O-])c2ccccc21 | - | 30.5 µg/mL
COc1ccc(-c2c3c(N)n(-c4ccccc4)c(=S)nc3nc3[nH]c(=O)[nH]c(=O)c23)cc1OC | - | 80 µg/mL
CC[C@@H](C(C)C)[C@@H](O)[C@H](O)[C@@H](C)[C@H]1CC[C@H]2[C@@H]3CC(=O)[C@@]4(O)C[C@@H](Br)CC[C@]4(C)[C@H]3CC[C@]12C | MTT | 36 µM
Oc1cc(Cl)ccc1Oc1ccc(Cl)cc1Cl | MTT | >300 µg/mL
COc1cc([C@H]2OC[C@]3(O)[C@@H](c4ccc(O)c(OC)c4)OC[C@H]23)ccc1O | - | 96.9 µg/mL
CC[C@@H](C(C)C)[C@@H](O)[C@H](O)[C@@H](C)[C@H]1CC[C@H]2[C@@H]3CC(=O)[C@@]4(O)C[C@@H](O)CC[C@]4(C)[C@H]3CC[C@]12C | MTT | 819 µM
Nc1nc(N)c2nnn(C[C@H]3CC[C@@H](CO)C3)c2n1 | - | ≥200 µg/mL
Nc1ncnc2ncn(COCCO)c12 | - | 496 µg/mL
O=C(Nc1cccc([N+](=O)[O-])c1)/C(=N/NC(=O)c1ccncc1)c1nc2ccc([N+](=O)[O-])cc2[nH]c1=O | - | >10 µg/mL
CCCCCCCCc1cc2cn(C/C=C/C(O)CO)c(=O)nc2o1 | - | 14.9 µM
CSC(=S)N/N=C(/C)c1cccs1 | - | 3.4 µg/mL
CC[C@H](/C=C/[C@@H](C)[C@H]1CC[C@H]2[C@@H]3CC(=O)[C@@]4(Cl)C[C@@H](F)CC[C@]4(C)[C@H]3CC[C@]12C)C(C)C | MTT | 858 µM
Nc1ncnc2c1ncn2[C@@H]1O[C@H](CO)C[C@@H]1O | - | 30 µg/mL
CO[C@H]1/C=C/O[C@@]2(C)Oc3c(C)c(O)c4c(c3C2=O)C(=O)C(CO)=C(NC(=O)/C(C)=C\C=C\[C@H](C)[C@H](O)[C@@H](C)[C@@H](O)[C@@H](C)[C@H](OC(C)=O)[C@@H]1C)C4=O | - | >62.5 µg/mL
C[C@@H](O)C1=C[C@@H](n2cnc3c(N)ncnc32)[C@H](O)[C@@H]1O | MTT / neutral red | 6.7 µg/mL
CC(C)=CCc1c(O)cc(O)c2c1O[C@H](c1ccc(O)cc1O)CC2=O | - | 15.5 µg/mL
Cn1cc(NC(=O)c2cc(NC(=O)CCCCCCCC(=O)Nc3cc(C(=O)Nc4cc(C(=O)NCCC(N)=[NH2+])n(C)c4)n(C)c3)cn2C)cc1C(=O)NCCC(N)=[NH2+] | - | >62.5 µg/mL
Cc1nc(-c2ccccc2)sc1-c1csc(-c2ccc(F)c(Cl)c2)n1 | sulforhodamine | >80 µM
c1ccc(C2=NCCN2)c(NCc2cccc3ccccc23)c1 | - | 4 µg/mL
CCOc1ccc2nc(NC(=O)c3c/c(=N\NC(=O)C[N+](C)(C)C)c4ccc(O)cc4o3)sc2c1.[Cl-] | - | 5.32 µg/mL
CC[C@@H](C(C)C)[C@H](O)[C@@H](O)[C@@H](C)[C@H]1CC[C@H]2[C@@H]3CC(=O)[C@H]4C[C@@H](OC(C)=O)CC[C@]4(C)[C@H]3CC[C@]12C | MTT | 226 µM
N#Cc1c(NC(=S)Nc2ccccc2)nc2[nH]c(=O)[nH]c(=O)c2c1-c1ccc(Br)cc1 | - | 50 µg/mL
C/C(=N/NC(=S)NCc1ccccc1)c1nccnc1C | - | <0.41 µg/mL
CCCCCc1ccc(-c2cc3cn(C/C=C/C(O)CO)c(=O)nc3o2)cc1 | - | >100 µM
Nc1c2c(-c3ccc(Br)cc3)c3c(=O)[nH]c(=O)[nH]c3nc2nc(=O)n1-c1ccccc1 | - | 80 µg/mL
COCCCn1c2c([n+](Cc3ccc([N+](=O)[O-])cc3)c1C)C(=O)c1ccccc1C2=O | - | 4.05 µg/mL
COc1cc([C@@H]2c3cc4c(cc3[C@H](OC(C)=O)[C@@H]3COC(=O)[C@@H]23)OCO4)cc2nc3ccccc3nc12 | - | >20 µg/mL
CO[C@H]1/C=C/O[C@@]2(C)Oc3c(C)c(OC(C)=O)c4c(c3C2=O)C(=O)C=C(NC(=O)/C(C)=C\C=C\[C@H](C)[C@H](OC(C)=O)[C@@H](C)[C@@H](O)[C@@H](C)[C@H](OC(C)=O)[C@@H]1C)C4=O | - | 1.95 µg/mL
CCCCCc1ccc(-c2cc3cn(COCCO)c(=O)nc3o2)cc1 | - | 4.4 µM
N#Cc1cccc(C2=N[C@H](C(=O)OCc3ccccc3)CO2)c1 | MTS / absorbance | >128 µM
Cn1c2ccccc2c2cc(C=NNc3nc(-c4ccc(Br)cc4)cs3)ccc21 | MTT | 393 µM
Nc1nc(N)c2ncn(C[C@H]3CC[C@@H](CO)C3)c2n1 | - | ≥400 µg/mL
Cc1cn([C@H]2C[C@H](N)[C@@H](CO)O2)c(=O)[nH]c1=O | - | <100 µM
Oc1cc(C(O)CCc2ccco2)ccc1Oc1ccccc1 | MTT | >300 µg/mL
O=c1cc(N2CCN(Cc3ccccc3)CC2)sc2c([N+](=O)[O-])cc(C(F)(F)F)cc12 | MTT | >64 µg/mL
O=C1CC(SC(=S)N2CCOCC2)C(=O)N1 | - | 0.6 µg/mL
CC(C)(C)c1ccc(CNc2ccc(N3CCOCC3)cc2)cc1 | - | 8 µg/mL
COC1=CC([C@@H]2c3cc4c(cc3[C@H](OC(C)=O)[C@@H]3COC(=O)[C@H]32)OCO4)=CC(=O)C1=O | - | >23 µg/mL
CO[C@H]1/C=C/O[C@@]2(C)Oc3c(C)c(O)c4c(O)c(c(/C=N/N5CCN(C)CC5)c(O)c4c3C2=O)NC(=O)/C(C)=C\C=C\[C@H](C)[C@H](O)[C@@H](C)[C@@H](O)[C@@H](C)[C@H](OC(C)=O)[C@@H]1C | sulforhodamine | >80 µM
COc1cc(-c2oc3c(OC)c(OC)cc(O)c3c(=O)c2OC)ccc1O | - | 200 µM
Cc1nc(-c2ccccc2)sc1-c1csc(-c2ccc(Cl)cc2)n1 | sulforhodamine | >80 µM
O=C1NC(=O)c2c1c1c3ccccc3[nH]c1c1c2c2ccccc2n1CC(F)(F)F | - | <8 µM
N=c1c2c(ncn1N)Oc1c(c(-c3ccccc3)nn1-c1ccccc1)C2c1ccc(Cl)cc1 | - | 1.86 µg/mL
COC(=O)[C@@H]1[C@H](c2cc(OC)c3nc4cc(C)c(C)cc4nc3c2)c2cc3c(cc2C2=NOC[C@@H]21)OCO3 | - | 60 µg/mL
CC(=O)O[C@H]1CC[C@@]2(C)C(=CC[C@@H]3[C@@H]2CC[C@@]2(C)[C@H]3CCC23OCCO3)C1 | MTT | 814.4 µM
CC(C)(C)c1ccc(CNc2ccccc2C2=NCCN2)cc1 | - | 2 µg/mL
Nc1nc2ncn(COCCO)c2c(=O)[nH]1 | - | 99 µg/mL
Oc1cc(C(O)CCc2ccc(F)cc2)ccc1Oc1ccccc1 | MTT | >300 µg/mL
COc1cc(/C=C/C(=O)O)ccc1O | - | >102 µg/mL
CC[C@@H](C(C)C)[C@H](O)[C@@H](O)[C@@H](C)[C@H]1CC[C@H]2[C@@H]3CC(=O)[C@H]4C[C@@H](Br)CC[C@]4(C)[C@H]3CC[C@]12C | MTT | 152 µM
O=c1[nH]c(=O)n(COCCO)cc1C#Cc1ccccc1 | - | 21.6 µM
Cc1ccc(NCCNCC(C)(C)O)c2c(=O)c3ccccc3sc12 | - | 3.8 µg/mL
COC(=O)[C@H]1[C@@H]2CON=C2c2cc3c(cc2[C@H]1C1=CC(=O)C(=O)C(OC)=C1)OCO3 | - | >120 µg/mL
CC(=O)OCc1cc(=O)n(C)c2c3c4c(cc12)c(C)cc(=O)n4CO3 | - | 1.7 µg/mL
Cn1c2ccccc2c2cc(C=NNc3nc(-c4ccccc4)cs3)ccc21 | MTT | 321.5 µM